Measured values: paper PMC8703873, “Structure and Activity of a Selective Antibiofilm Peptide SK-24 Derived from the NMR Structure of Human Cathelicidin LL-37” (Pharmaceuticals, 2021)
Non-standard residues stand in square brackets, D forms with d. Residues, ends and D or L forms follow the SMILES beside them. No end group written: not given here. Bip = N[C@@H](Cc1ccc(-c2ccccc2)cc1)C(=O)O

Assay: Circular dichroism: helicity, R1 and R2 in PBS or SDS micelles
Format: physicochemical
Settings: for helix% in phosphate buffer: PBS; for helicity in SDS: SDS micelles
[1] = 60 mM SDS micelles, 0.5 mM peptide, 10 mM PBS pH 7, 25 °C
[2] = PBS: 0.5 mM peptide in 10 mM PBS, pH 7, 25 °C

## GIKEFKRIVQRIKDFLRNLV-NH2 [GI-20]
[1]
  R1 (molar ellipticity ratio 192/208): −2.40
0.5 mM peptide
  helix% in phosphate buffer: 75%
[2]
  R1 (molar ellipticity ratio 192/208): −2.48

## RIVQRIKDFL-NH2 [RI-10]
[1]
  R1 (molar ellipticity ratio 192/208): −2.17
[2]
  R1 (molar ellipticity ratio 192/208): −8.95
0.5 mM peptide
  helicity in SDS: 75%

## CC(C)C[C@H](NC(=O)[C@H](CC(N)=O)NC(=O)[C@H](CCCNC(=N)N)NC(=O)[C@@H](CC(C)C)NC(=O)[C@H](Cc1ccc(-c2ccccc2)cc1)NC(=O)[C@H](CC(=O)O)NC(=O)[C@H](CCCCN)NC(=O)[C@@H](CC(C)C)NC(=O)[C@H](CCCNC(=N)N)NC(=O)[C@H](CCC(N)=O)NC(=O)[C@@H](NC(=O)[C@@H](CC(C)C)NC(=O)[C@H](CCCNC(=N)N)NC(=O)[C@H](CCCCN)NC(=O)[C@H](Cc1ccc(-c2ccccc2)cc1)NC(=O)CN)C(C)C)C(=O)N[C@H](C(N)=O)C(C)C [Peptide 17BIPHE2] (H-G[Bip]KR[dL]VQR[dL]KD[Bip][dL]RNLV-NH2; N-terminus assumed)
[1]
  R1 (molar ellipticity ratio 192/208): −3.23
[2]
  R1 (molar ellipticity ratio 192/208): 1.18
0.5 mM peptide
  helicity in SDS: 25%

## GFKRIVQRIKDFLRNLV-NH2 (C-terminus assumed) [GF-17]
[1]
  R1 (molar ellipticity ratio 192/208): −2.40
0.5 mM peptide
  helix% in phosphate buffer: 33%
[2]
  R1 (molar ellipticity ratio 192/208): −1.91

## SKEKIGKEFKRIVQRIKDFLRNLV-NH2 [SK-24]
[1]
  R1 (molar ellipticity ratio 192/208): −2.31
0.5 mM peptide
  helix% in phosphate buffer: ~ 100%
[2]
  R1 (molar ellipticity ratio 192/208): −1.14
